Data as given in PubChem BioAssay AID504761 (Drosophila RNAi Screening Center, 2011).

Test: 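Fly genes whose silencing reduces dengue virus type 2 infection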 (primary screen)
Cell system: D.Mel-2 cells from Drosophila
Reagent: long dsRNA against Drosophila genes
Conditions: infection with dengue virus type 2; dose and infection time not stated
Read-out: 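Cells stained for dengue envelope protein and imaged; percent of infected cells per well on duplicate plates, ranked by infection, with stained nuclei counted for cell number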
Scale: infection score: higher = more virus-infected cells; cell count: higher = more cells in the well
Hit rule: 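Very low infection ranking in both replicate wells (chance probability at most 0.065), then a retest showing infection dropped 1.5-fold or more at p below 0.05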
Meaning of the calls: active = confirmed: knock-down lowers infection; inactive = not picked or not confirmed
The deposit covers about 22,000 reagents; this is an unselected part of those with a known target gene and a result. Over the whole deposit, 116 (0.52%) were called active. 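Calls depend on retest data that are not deposited; infection was ranked per plate without normalising between plates; the unit of the infection score is not given.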 The raw values are shown without normalisation. The numbers tell different reagents against one gene apart. Reagent sequences are not shown. The record does not give: the amount of reagent, the time to read-out.

{"Target gene": "DUBAI (Deubiquitinating apoptotic inhibitor)", "reagent no.": 1, "infection score, replicate 1": 23.7, "infection score, replicate 2": 13.4, "cell count, replicate 1": 3276, "cell count, replicate 2": 6059, "call": "inactive"}
{"Target gene": "l(2)k05819 (lethal (2) k05819)", "reagent no.": 1, "infection score, replicate 1": 10.8, "infection score, replicate 2": 10.9, "cell count, replicate 1": 6334, "cell count, replicate 2": 2462, "call": "inactive"}
{"Target gene": "CG15025", "reagent no.": 1, "infection score, replicate 1": 1.88, "infection score, replicate 2": 2.33, "cell count, replicate 1": 6611, "cell count, replicate 2": 6640, "call": "inactive"}
{"Target gene": "prtp (pretaporter)", "reagent no.": 1, "infection score, replicate 1": 15.2, "infection score, replicate 2": 5.81, "cell count, replicate 1": 6524, "cell count, replicate 2": 6715, "call": "inactive"}
{"Target gene": "prtp (pretaporter)", "reagent no.": 2, "infection score, replicate 1": 2.02, "infection score, replicate 2": 12.5, "cell count, replicate 1": 5435, "cell count, replicate 2": 6044, "call": "inactive"}
{"Target gene": "CG5535", "reagent no.": 1, "infection score, replicate 1": 8.42, "infection score, replicate 2": 12, "cell count, replicate 1": 4406, "cell count, replicate 2": 5727, "call": "inactive"}
{"Target gene": "CG5535", "reagent no.": 2, "cell count, replicate 1": 381, "cell count, replicate 2": 290, "call": "inactive"}
{"Target gene": "Zip42C.2 (Zinc/iron regulated transporter-related protein 42C.2)", "reagent no.": 1, "infection score, replicate 1": 1.4, "infection score, replicate 2": 16.1, "cell count, replicate 1": 6848, "cell count, replicate 2": 5434, "call": "inactive"}
{"Target gene": "Zip42C.2 (Zinc/iron regulated transporter-related protein 42C.2)", "reagent no.": 2, "infection score, replicate 1": 6.92, "infection score, replicate 2": 7.55, "cell count, replicate 1": 1793, "cell count, replicate 2": 5881, "call": "inactive"}
{"Target gene": "Exo84 (Exocyst 84)", "reagent no.": 1, "infection score, replicate 1": 0.74, "infection score, replicate 2": 2.3, "cell count, replicate 1": 6112, "cell count, replicate 2": 6005, "call": "inactive"}
{"Target gene": "tobi (target of brain insulin)", "reagent no.": 1, "infection score, replicate 1": 7.1, "infection score, replicate 2": 9.04, "cell count, replicate 1": 6096, "cell count, replicate 2": 6217, "call": "inactive"}
{"Target gene": "Nop10 (Nop10 ribonucleoprotein)", "reagent no.": 1, "infection score, replicate 1": 23.4, "infection score, replicate 2": 1.83, "cell count, replicate 1": 4923, "cell count, replicate 2": 1039, "call": "inactive"}
{"Target gene": "Mgat3", "reagent no.": 1, "infection score, replicate 1": 5.78, "infection score, replicate 2": 4.25, "cell count, replicate 1": 6318, "cell count, replicate 2": 5889, "call": "inactive"}
{"Target gene": "Mgat3", "reagent no.": 2, "infection score, replicate 2": 10.1, "cell count, replicate 1": 262, "cell count, replicate 2": 2665, "call": "inactive"}

Sorted by “infection score, replicate 2” (descending): 2 of the entries above
{"Target gene": "Zip42C.2 (Zinc/iron regulated transporter-related protein 42C.2)", "reagent no.": 1, "infection score, replicate 1": 1.4, "infection score, replicate 2": 16.1, "cell count, replicate 1": 6848, "cell count, replicate 2": 5434, "call": "inactive"}
{"Target gene": "Zip42C.2 (Zinc/iron regulated transporter-related protein 42C.2)", "reagent no.": 2, "infection score, replicate 1": 6.92, "infection score, replicate 2": 7.55, "cell count, replicate 1": 1793, "cell count, replicate 2": 5881, "call": "inactive"}
